Results of unrelated studies side by side (data: NIAID ChemDB).

Shared fields: tests in culture

Inhibition is in % at the dose shown (toxicity tests: loss of growth or viability). A number after MIC or MFC names an inhibition level or a share of isolates. Rows are shuffled and stem from different studies. ECn: concentration that inhibits the pathogen or its effect by n%. Two numbers with a dash give a range or band. An empty or dashed field is not shown.

structure,species,strain,read-out,tested at,cells,method,value
Nc1nc(=O)n([C@H]2C[C@H](O)[C@@H](CO)O2)cc1/C=C\Cl,Equine herpesvirus 1,Kentucky (type 1),EC50,-,PRK,cytopathic effect,>200 µg/mL
CCC(=O)C(CCCCCCOc1ccc(OC)cc1Cl)C(=O)CC,Equine herpesvirus 4,-,EC50,-,-,virus yield,<100 µg/mL
CCC(C)CC(C)CCCCCCCCC(=O)N[C@H]1C[C@@H](O)[C@H](NCCN)NC(=O)[C@@H]2[C@@H](O)CCN2C(=O)[C@H]([C@H](O)CCN)NC(=O)[C@H]([C@H](O)[C@@H](O)c2ccc(O)cc2)NC(=O)[C@@H]2C[C@@H](O)CN2C(=O)[C@H]([C@@H](C)O)NC1=O,Cryptococcus gattii,CBS 11807,MIC,-,-,broth dilution,16 µg/mL
CO/N=C1\CN(c2nc3c(cc2F)c(=O)c(C(=O)O)cn3C2CC2)CC1CN,Streptococcus pneumoniae,28 strains (ciprofloxacin-resistant),MIC50,-,-,-,0.25 µg/mL
CN1CCC(c2cc(-c3ccncc3)c(-c3ccc(F)cc3)[nH]2)CC1,Toxoplasma gondii,ET-PKG FLAG,EC50,-,-,-,0.3 µM
O=C(NCc1ccc(Cl)cc1)c1c[nH]c2c(F)cccc2c1=O,Rat cytomegalovirus,ATCC,EC50,-,-,plaque count,8.5 µM
Nc1ncccc1-c1cc(Cc2ccc(COc3ccccn3)cc2)no1,Candida spp.,fluconazole-sensitive,MIC50,-,-,broth dilution,<0.008 µg/mL
CN1C(=O)[C@@H](Cc2ccccc2)NC1=S,HIV-2,-,inhibition,100 µg/mL,MT-4,cytopathic effect / XTT,100%
Cc1cc(NS(=O)(=O)c2ccc(NC(=S)NCc3ccc(F)cc3)cc2)no1,SIV,-,EC50,-,CEM174,syncytia,9.9 µM
Nc1nc2c(ncn2COCCO)c(=O)[nH]1,Guinea pig herpesvirus,Lymphotropic,EC50,-,GPE,plaque count,144.5 µg/mL
Cc1cc(NS(=O)(=O)c2ccc(NC(=S)NCCc3ccccc3)cc2)no1,SIV,-,EC50,-,CEM174,syncytia,4 µM
O=C(O)P(=O)(O)O,Simian rotavirus,SA-11,EC50,-,MA-104,cytopathic effect,10–1000 µM
CCOC(=O)/C=C/[C@H](C[C@@H]1CCNC1=O)NC(=O)[C@@H](CC(=O)[C@@H](NC(=O)c1cc(C)on1)C(C)C)Cc1ccc(F)cc1,Rhinovirus,Isolate 19,EC50,-,OHIO HELA-I,cytopathic effect / visual reading,<0.01 µg/mL
CCC(=O)C(CCCCCCOc1ccc(OC)cc1Cl)C(=O)CC,Mouse cytomegalovirus,SMITH,inhibition,3 µg/mL,MEF,plaque count,35%
Nc1nc(=O)n([C@H]2C[C@H](O)[C@@H](CO)O2)cc1/C=C/Cl,Bovine herpesvirus 1,LA (TYPE 1),EC50,-,PRK,cytopathic effect,150 µg/mL
COc1cc(O)c(/C=N/N=C(\N)NO)c(OC)c1.Cc1ccc(S(=O)(=O)O)cc1,Adenovirus,WT 300 (TYPE 5),EC50,-,A549,plaque count,100 µM
N#Cc1cc([N+](=O)[O-])ccc1Oc1ccc(Cl)c(Cl)c1,Coxsackie virus,TYPE A21,inhibition,12.5 µg/mL,VERO,-,>99%
Cc1cc(NS(=O)(=O)c2ccc(NC(=S)NCc3ccccc3)cc2)no1,SIV,-,EC50,-,CEM174,syncytia,7.8 µM
N#Cc1csc(NC(=O)NCCc2ccccc2)n1,HIV-2,-,inhibition,10 µg/mL,MT-4,RT activity,94%
CC(N)C12CC3CC(CC(C3)C1)C2,Influenza A virus,Influenza A H3N2 isolate 88,EC50,-,MDCK,ELISA,4.15 µg/mL
Nc1nc2c(ncn2COC(CO)CO)c(=O)[nH]1,Cytomegalovirus,-,inhibition,1 µM,HEL,-,97%
Cc1cc(NS(=O)(=O)c2ccc(NC(=S)Nc3ccc4ccccc4c3)cc2)no1,SIV,-,EC50,-,CEM174,syncytia,13.6 µM
CC(=O)OCCOCN1C=C(C#N)C(N)=NS1(=O)=O,Reovirus,TYPE 1,EC50,-,VERO,-,>400 µg/mL
COc1ccccc1NC(=S)Nc1ccc(S(=O)(=O)Nc2cc(C)on2)cc1,SIV,-,EC50,-,CEM174,syncytia,6.4 µM
O=C1[C@@H](Cc2ccccc2)NC(=S)N1c1ccccc1,HIV-2,-,inhibition,10 µg/mL,MT-4,cytopathic effect / XTT,48%
OC[C@H]1O[C@@H](n2cnc3c(NC4CCCCCC4)nc(Cl)nc32)[C@H](O)[C@@H]1O,Maedi-visna virus,-,EC50,-,-,cytopathic effect,0.15 µM
CN(C)c1cccc2c(S(=O)(=O)Nc3ccc(NC(=O)C(C)(C)CO)cc3)cccc12,Rhesus cytomegalovirus,68-1,EC50,-,-,plaque count,0.67 µM
O=C(NCc1ccc(Cl)cc1)c1c[nH]c2ccc(C#CCO)cc2c1=O,Rat cytomegalovirus,ATCC,EC50,-,-,plaque count,0.6 µM
C=CCc1ccc(O)c(OC)c1,Candida tropicalis,3013,MIC90,-,-,turbidity,480 µg/mL
N#CC(c1ccc(Cl)cc1)c1c(Cl)cc(-n2ncc(=O)[nH]c2=O)cc1Cl,Toxoplasma gondii,RH,inhibition,0.005 µg/mL,-,-,97.8–98%
O=C(NCCc1ccccc1)Nc1nc(C(F)(F)F)cs1,HIV-2,-,inhibition,0.1 µg/mL,MT-4,cytopathic effect / XTT,21%
CCC(C)n1ncn(-c2ccc(N3CCN(c4ccc(OC[C@H]5CO[C@](Cn6cncn6)(c6ccc(Cl)cc6Cl)O5)cc4)CC3)cc2)c1=O,Aspergillus flavus,-,MIC50,-,-,broth dilution,0.25 µg/mL
CCCCCCCCCCCCCCCCCCCCCCO,Respiratory syncytial virus,-,inhibition,5 µg/mL,VERO,syncytia,78%
CCCOC(=O)c1ccc(NC(=S)Nc2ccc(S(=O)(=O)Nc3cc(C)on3)cc2)cc1,SIV,-,EC50,-,CEM174,syncytia,4.5 µM
Nc1ccn([C@@H]2CS[C@H](CO)O2)c(=O)n1,Maedi-visna virus,-,EC50,-,-,cytopathic effect,5 µM
O=C(NCCc1ccccc1)Nc1nc2ccc(F)cc2s1,HIV-2,-,inhibition,10 µg/mL,MT-4,RT activity,62%
N=C(N)c1ncn([C@@H]2O[C@H](CO)[C@@H](O)[C@H]2O)n1,Pichinde virus,-,EC50,-,-,-,>100 µM
O=C(NCCc1ccccc1)Nc1nc2ccccc2s1,HIV-2,-,inhibition,1 µg/mL,MT-4,cytopathic effect / XTT,99%
Cc1cc(-c2cccc(S(=O)(=O)Nc3cc(NCC(C)C)c4n[nH]c(Cl)c4c3)c2)ccc1Cl,Streptococcus pyogenes,-,MIC,-,-,-,3.75 µM
CN[C@H]1CC[C@@H](c2ccc(Cl)c(Cl)c2)c2ccccc21,Cryptococcus neoformans,UA 1993,MFC,-,-,broth dilution,8 µg/mL

Repeating the final 5 entries:

structure | species | strain | read-out | tested at | cells | method | value
O=C(NCCc1ccccc1)Nc1nc2ccc(F)cc2s1 | HIV-2 | - | inhibition | 10 µg/mL | MT-4 | RT activity | 62%
N=C(N)c1ncn([C@@H]2O[C@H](CO)[C@@H](O)[C@H]2O)n1 | Pichinde virus | - | EC50 | - | - | - | >100 µM
O=C(NCCc1ccccc1)Nc1nc2ccccc2s1 | HIV-2 | - | inhibition | 1 µg/mL | MT-4 | cytopathic effect / XTT | 99%
Cc1cc(-c2cccc(S(=O)(=O)Nc3cc(NCC(C)C)c4n[nH]c(Cl)c4c3)c2)ccc1Cl | Streptococcus pyogenes | - | MIC | - | - | - | 3.75 µM
CN[C@H]1CC[C@@H](c2ccc(Cl)c(Cl)c2)c2ccccc21 | Cryptococcus neoformans | UA 1993 | MFC | - | - | broth dilution | 8 µg/mL